Key:
Type in all cases: cell-based
[1] = test system: Chicken red blood cells (RBCs); test: Hemolysis assay; settings: for HC50: chicken RBCs in PBS pH 7.4, 2 × 10^7 cells/mL stock, 10–0.08 μM, 2 h at 37°C, absorbance 405 nm, 1% Triton X-100 positive control, mean ± SD, at least three biological repeats; for TI (hemolysis) / TI (haemolysis): chicken RBCs, HC50/MBC50; for TI (hemolysis): MBC50 toward S. aureus 29213; for TI (haemolysis): MBC50 towards E. coli 8729
Description: Chicken red blood cells (RBCs) in Alsever’s solution (RBCs, Equicell, Victoria, Australia) were diluted 1 in 20 in PBS (pH 7.4), pelleted by centrifugation, and washed three times in PBS (1,000 g, 10 min). The RBCs were counted using a cell counter (Coulter Particle Counter Z series, Beckman Coulter) and diluted to a final concentration of 2 × 10^7 cells/mL. Aliquots (100 μL) of the RBC solution were seeded into a V-bottomed 96-well plate containing 100 μL of serial dilutions (10–0.08 μM) of the AMP in PBS and incubated in a humidified atmosphere containing 5% CO2 at 37°C for 2 h. Following incubation, the RBCs were pelleted in a centrifuge (1,000 g, 10 min), and the amount of hemoglobin released in 100 μL aliquots of the supernatant was determined by measuring the absorbance at 405 nm using a microplate reader (PerkinElmer 1,420 Multilabel Counter VICTOR3). Positive and negative controls for hemolysis were taken as RBC lysed with 1% v/v Triton X-100 and RBC suspension in PBS, respectively. The percentage of hemolysis was calculated using the following formula: % Hemolysis A405 test sample−A405 negative control / A405 positive control−A405 negative controlx 100.
The percentage hemolysis was plotted against peptide concentration, and linear regression analysis was used to determine the hemolytic concentration needed to lyse 50% (HC50) of RBCs.

[2] = test system: H4IIE cells; test: Inhibition of cell proliferation, MTS assay; settings: for IC50: H4IIE cells, MTS proliferation assay after 90 min exposure, 1 h MTS, linear regression, mean ± SD, at least three biological repeats; for TI (cell proliferation): H4IIE, IC50/MIC50
Description: (§1) To determine the inhibition of cell proliferation, 20 μL of 3-(4,5-dimethylthiazol-2-yl)-5-(3-carboxymethoxyphenyl)-2-(4-sulfophenyl)-2H-tetrazolium (MTS) solution (CellTiter 96 AQueous Non-Radioactive Cell Proliferation Assay kit, Promega) was added to the remaining 100 µL from the toxicity assay, and the plates were incubated for a further 1 h at 37°C in a 5% CO2 incubator protected from light. Cell proliferation was determined by measuring absorbance at 490 nm using a microplate reader (PerkinElmer 1,420 Multilabel Counter VICTOR3). Positive and negative controls for inhibition were taken as cells incubated with lysis solution (CytoTox 96® Non-Radioactive Cytotoxicity Assay kit, Promega) and cells incubated in media alone, respectively. The background absorbance of media alone was subtracted from the samples, and the percentage of inhibition was calculated using the following formula: % Inhibition=A490 test sample−A490 negative control/A490 positive control−A490 negative control×100.
(§2) The percentage of inhibition was plotted against peptide concentration, and linear regression analysis was used to determine the AMP concentration needed to inhibit 50% (IC50) of cell growth.

[3] = test system: HEK-293 (ATCC CRL-1573) cells; test: Inhibition of cell proliferation, MTS assay; settings: for TI (cell proliferation): HEK293, IC50/MIC50; for IC50: HEK293 cells, MTS proliferation assay after 90 min exposure, 1 h MTS, linear regression, mean ± SD, at least three biological repeats
Description: as §1, §2

[4] = test system: H4IIE cells; test: Cytotoxicity (cell lysis), LDH release assay; settings: for LD50: H4IIE cells, LDH release, 90 min exposure at 37°C, 20–0.5 μM, concentration lysing 50% of cells by linear regression, mean ± SD, at least three biological repeats; for TI (cell lysis): H4IIE, LD50/MBC50
Description: (§3) To determine toxicity toward mammalian cells, 1 × 10^4 cells/well of HEK-293 (ATCC CRL-1573TM) or H4IIE in a total volume of […] in media (Eagle’s Minimum Essential Medium (EMEM) supplemented with 10% v/v fetal bovine serum, 5% v/v L-glutamine and 5% v/v penicillin/streptomycin) were seeded into 96-well plates and cultured at 37°C in a 5% CO2 incubator for 16–20 h. When cells were ≥90% confluent, the 100 µL media was removed and replaced with 50 μL serial dilutions of the AMP in media (final concentration 20–0.5 μM) and cultured at 37°C in a 5% CO2 incubator for 90 min. From each well, 50 µL was transferred to a new plate. To the 50 μL, 50 µL of lactate dehydrogenase (LDH) solution (CytoTox 96® Non-Radioactive Cytotoxicity Assay kit, Promega) was added to each well and incubated for a further 30 min at room temperature and protected from light. Cell death was determined by measuring absorbance at 490 nm using a microplate reader (PerkinElmer 1,420 Multilabel Counter VICTOR3). Positive and negative controls for inhibition were taken as cells incubated with lysis solution (CytoTox 96® Non-Radioactive Cytotoxicity Assay kit, Promega) and cells incubated in media alone, respectively. The background absorbance of media alone was subtracted from the sample absorbance, and the percentage of inhibition was calculated using the following formula: % Cytotoxicity=A490 test sample−A490 negative control/A490 positive control−A490 negative control×100.
(§4) The percentage of lysis was plotted against peptide concentration, and linear regression analysis was used to determine the AMP concentration needed to lyse 50% (LD50) of the cells.

[5] = test system: HEK-293 (ATCC CRL-1573) cells; test: Cytotoxicity (cell lysis), LDH release assay; settings: for TI (cell lysis): HEK293, LD50/MBC50; for LD50: HEK293 cells, LDH release, 90 min exposure at 37°C, 20–0.5 μM, concentration lysing 50% of cells by linear regression, mean ± SD, at least three biological repeats
Description: as §3, §4

SMILES | HC50 [1] [µM] | TI (hemolysis) [1] | TI (haemolysis) [1] | IC50 [2] [µM] | TI (cell proliferation) ([2]; MIC50 toward S. aureus 29213) | TI (cell proliferation) ([2]; MIC50 towards E. coli 8729) | TI (cell proliferation) ([3]; MIC50 toward S. aureus 29213) | TI (cell proliferation) ([3]; MIC50 towards E. coli 8729) | IC50 [3] [µM] | LD50 [4] [µM] | TI (cell lysis) ([4]; MBC50 toward S. aureus 29213) | TI (cell lysis) ([4]; MBC50 towards E. coli 8729) | TI (cell lysis) ([5]; MBC50 toward S. aureus 29213) | TI (cell lysis) ([5]; MBC50 towards E. coli 8729) | LD50 [5] [µM]
CC[C@H](C)[C@H](NC(=O)CN)C(=O)NCC(=O)N[C@@H](C)C(=O)N[C@H](C(=O)N[C@@H](CC(C)C)C(=O)N[C@@H](CN)C(=O)N[C@H](C(=O)N[C@@H](CC(C)C)C(=O)N[C@H](C(=O)N[C@H](C(=O)NCC(=O)N[C@@H](CC(C)C)C(=O)N1CCC[C@H]1C(=O)N[C@@H](C)C(=O)N[C@@H](CC(C)C)C(=O)N[C@H](C(=O)N[C@@H](CO)C(=O)N[C@@H](Cc1c[nH]c2ccccc12)C(=O)N[C@H](C(=O)N[C@@H](CN)C(=O)N[C@@H](CCCNC(=N)N)C(=O)N[C@@H](CN)C(=O)N[C@@H](CCCNC(=N)N)C(=O)N[C@@H](CCC(N)=O)C(=O)N[C@@H](CCC(N)=O)C(N)=O)[C@@H](C)CC)[C@@H](C)CC)[C@@H](C)O)[C@@H](C)O)C(C)C)C(C)C [4. Lys → Dap melittin] | 0.89 ± 0.39 | 0.64 | 0.32 | 7.93 ± 0.12 | 10.00 | 2.82 | 18.07 | 5.10 | 14.3 ± 6.02 | 5.43 ± 0.91 | 3.93 | 1.93 | 1.47 | 0.72 | 2.02 ± 0.77
CC[C@H](C)[C@H](NC(=O)CN)C(=O)NCC(=O)N[C@@H](C)C(=O)N[C@H](C(=O)N[C@@H](CC(C)C)C(=O)N[C@@H](CCCN)C(=O)N[C@H](C(=O)N[C@@H](CC(C)C)C(=O)N[C@H](C(=O)N[C@H](C(=O)NCC(=O)N[C@@H](CC(C)C)C(=O)N1CCC[C@H]1C(=O)N[C@@H](C)C(=O)N[C@@H](CC(C)C)C(=O)N[C@H](C(=O)N[C@@H](CO)C(=O)N[C@@H](Cc1c[nH]c2ccccc12)C(=O)N[C@H](C(=O)N[C@@H](CCCN)C(=O)N[C@@H](CCCNC(=N)N)C(=O)N[C@@H](CCCN)C(=O)N[C@@H](CCCNC(=N)N)C(=O)N[C@@H](CCC(N)=O)C(=O)N[C@@H](CCC(N)=O)C(N)=O)[C@@H](C)CC)[C@@H](C)CC)[C@@H](C)O)[C@@H](C)O)C(C)C)C(C)C [2. Lys → Orn melittin] | 1.4 ± 1.14 | 1.80 | 0.40 | 3.37 ± 0.08 | 5.26 | 1.56 | 16.39 | 4.86 | 10.5 ± 2.65 | 2.22 ± 1.31 | 2.80 | 0.63 | 1.47 | 0.33 | 1.16 ± 0.09
CC[C@H](C)[C@H](NC(=O)CN)C(=O)NCC(=O)N[C@@H](C)C(=O)N[C@H](C(=O)N[C@@H](CC(C)C)C(=O)N[C@@H](CCN)C(=O)N[C@H](C(=O)N[C@@H](CC(C)C)C(=O)N[C@H](C(=O)N[C@H](C(=O)NCC(=O)N[C@@H](CC(C)C)C(=O)N1CCC[C@H]1C(=O)N[C@@H](C)C(=O)N[C@@H](CC(C)C)C(=O)N[C@H](C(=O)N[C@@H](CO)C(=O)N[C@@H](Cc1c[nH]c2ccccc12)C(=O)N[C@H](C(=O)N[C@@H](CCN)C(=O)N[C@@H](CCCNC(=N)N)C(=O)N[C@@H](CCN)C(=O)N[C@@H](CCCNC(=N)N)C(=O)N[C@@H](CCC(N)=O)C(=O)N[C@@H](CCC(N)=O)C(N)=O)[C@@H](C)CC)[C@@H](C)CC)[C@@H](C)O)[C@@H](C)O)C(C)C)C(C)C [3. Lys → Dab melittin] | 1.33 ± 1.02 | 1.50 | 0.47 | 3.08 ± 0.24 | 4.21 | 1.12 | 12.60 | 3.35 | 9.23 ± 2.91 | 2.42 ± 1.82 | 2.74 | 0.86 | 1.35 | 0.42 | 1.19 ± 0.22
CC[C@H](C)[C@H](NC(=O)CN)C(=O)NCC(=O)N[C@@H](C)C(=O)N[C@H](C(=O)N[C@@H](CC(C)C)C(=O)N[C@@H](CCCCN)C(=O)N[C@H](C(=O)N[C@@H](CC(C)C)C(=O)N[C@H](C(=O)N[C@H](C(=O)NCC(=O)N[C@@H](CC(C)C)C(=O)N1CCC[C@H]1C(=O)N[C@@H](C)C(=O)N[C@@H](CC(C)C)C(=O)N[C@H](C(=O)N[C@@H](CO)C(=O)N[C@@H](Cc1c[nH]c2ccccc12)C(=O)N[C@H](C(=O)N[C@@H](CCCCN)C(=O)N[C@@H](CCCNC(=N)N)C(=O)N[C@@H](CCCCN)C(=O)N[C@@H](CCCNC(=N)N)C(=O)N[C@@H](CCC(N)=O)C(=O)N[C@@H](CCC(N)=O)C(=O)NCCCC[C@H](N)C(=O)NCC(=O)N[C@H](C(=O)NCC(=O)N[C@@H](C)C(=O)N[C@H](C(=O)N[C@@H](CC(C)C)C(=O)N[C@@H](CCCCN)C(=O)N[C@H](C(=O)N[C@@H](CC(C)C)C(=O)N[C@H](C(=O)N[C@H](C(=O)NCC(=O)N[C@@H](CC(C)C)C(=O)N1CCC[C@H]1C(=O)N[C@@H](C)C(=O)N[C@@H](CC(C)C)C(=O)N[C@H](C(=O)N[C@@H](CO)C(=O)N[C@@H](Cc1c[nH]c2ccccc12)C(=O)N[C@H](C(=O)N[C@@H](CCCCN)C(=O)N[C@@H](CCCNC(=N)N)C(=O)N[C@@H](CCCCN)C(=O)N[C@@H](CCCNC(=N)N)C(=O)N[C@@H](CCC(N)=O)C(=O)N[C@@H](CCC(N)=O)C(N)=O)[C@@H](C)CC)[C@@H](C)CC)[C@@H](C)O)[C@@H](C)O)C(C)C)C(C)C)[C@@H](C)CC)[C@@H](C)CC)[C@@H](C)CC)[C@@H](C)O)[C@@H](C)O)C(C)C)C(C)C [6. Antiparallel dimer] | 0.29 ± 0.02 | 0.08 | 0.10 | 7.91 ± 0.82 | 3.06 | 2.63 | 5.01 | 4.31 | 13 ± 1.91 | 4.66 ± 4.49 | 1.28 | 1.65 | 0.55 | 0.71 | 2.01 ± 0.66

Reference: publication PMC11492869, “Dimerization and lysine substitution of melittin have differing effects on bacteria” (Frontiers in Pharmacology, 2024)
